Compound potency records, mixed from different reports. Data source: NIAID ChemDB in PubChem.

All rows: toxicity to cultured cells; cell line: H9; method: MTT; measure: CC50

CCn: concentration that lowers growth or viability of the cells by n%. Rows are shuffled and stem from different studies.

smiles | result
COc1cc(C2(C(F)(F)F)N=N2)ccc1C(=O)NCCOCCOCCNC(=O)c1cc(C(=O)c2ccc3ccccc3c2)n2ccc(C(=O)c3ccccc3)cc12 | 174.6 µM
CC(=O)O[C@H]1[C@H](O)C2=C(CC[C@H]3C(C)(C)[C@@H](OS(=O)(=O)O)[C@H](OC(=O)CCCCCCCCCCCCCCCO)C[C@]23C)C2=CC[C@H]([C@H](C)CCC3(C(C)(C)O)CO3)[C@]21C | <12 µM
CCOC(=O)c1cc(C(=O)c2ccc3ccccc3c2)n2ccc(C(=O)c3ccncc3)cc12 | 137.3 µM
C=C(CC[C@@H](C)[C@H]1CC=C2C3=C([C@@H](O)[C@H](OC(C)=O)[C@@]21C)[C@@]1(C)C[C@@H](OC(=O)CCC(=O)O)[C@H](O)C(C)(C)[C@@H]1CC3)C(C)C | <6 µM
CCOC(=O)c1cc(C(=O)c2ccc(O)cc2)n2ccc(C(=O)NCc3ccccn3)cc12 | 150 µM
C=C(CC[C@@H](C)[C@H]1CC=C2C3=C([C@@H](O)[C@H](OC(C)=O)[C@@]21C)[C@@]1(C)C[C@@H](O)[C@H](OC(=O)CCC(=O)O)C(C)(C)[C@@H]1CC3)C(C)C | <12.5 µM
O=C(CCCCC1SC[C@@H]2NC(=O)N[C@H]12)NCCOCCOCCOc1cc(C2(C(F)(F)F)N=N2)ccc1C(=O)NCCOCCOCCNC(=O)c1cc(C(=O)c2ccc3ccccc3c2)n2ccc(C(=O)c3ccccc3)cc12 | 160.1 µM
CCOC(=O)c1cc(C(=O)c2ccc3ccccc3c2)n2ccc(C(=O)c3ccccc3)cc12 | 167.4 µM
CCOC(=O)c1cc(C(=O)c2ccc3c(c2)OCO3)n2ccc(C(=O)NCc3ccccn3)cc12 | 89.1 µM
CCOC(=O)c1cc(C(=O)NCc2ccccn2)n2ccc(C(=O)c3ccco3)cc12 | 107.3 µM
CC1=C(/C=C/C(C)=C/C=C/C(C)=C/C(=O)O)C(C)(C)CCC1 | >1 µM
CCOC(=O)c1cc(C(=O)c2ccccc2N)n2ccc(C(=O)NCc3ccccn3)cc12 | 247.5 µM
O=C(CCCC[C@@H]1SC[C@@H]2NC(=O)N[C@@H]21)NCCOCCOCCOc1cc(C2(C(F)(F)F)N=N2)ccc1C(=O)NCCOCCOCCNC(=O)c1cc(C(=O)c2ccc3ccccc3c2)n2ccc(C(=O)c3ccccc3)cc12 | 160.1 µM
CCOC(=O)c1cc(C(=O)c2ccc3ccccc3c2)n2ccc(C(=O)c3ccccc3)cc12 | 167.4 µM
CCOC(=O)c1cc(C(=O)c2ccc3ccccc3c2)n2ccc(C(=O)NCc3ccccn3)cc12 | 123.9 µM
CCOC(=O)c1cc(C(=O)c2ccc(Cl)cc2)n2ccc(C(=O)NCc3ccccn3)cc12 | 142.2 µM
NCCOCCOCCNC(=O)c1cc(C(=O)c2ccc3ccccc3c2)n2ccc(C(=O)c3ccccc3)cc12 | 13.6 µM
CCOC(=O)c1cc(C(=O)c2ccccc2)n2ccc(C(=O)NCc3ccc4ccccc4c3)cc12 | 250.5 µM
CCOC(=O)c1cc(C(=O)NCc2cccnc2)n2ccc(C(=O)c3ccco3)cc12 | 233.5 µM
CCOC(=O)c1cc(C(=O)c2ccc3ccccc3c2)n2ccc(C(=O)NCc3ccccn3)cc12 | 123.9 µM
CCOC(=O)c1cc(C(=O)c2ccccc2)n2ccc(C(=O)NCc3ccc4ccccc4c3)cc12 | 250.5 µM
COc1cc(C2(C(F)(F)F)N=N2)ccc1C(=O)NCCOCCOCCNC(=O)c1cc(C(=O)c2ccc3ccccc3c2)n2ccc(C(=O)c3ccccc3)cc12 | 174.6 µM

For reference, 2 entries again:

smiles	result
CCOC(=O)c1cc(C(=O)c2ccc3ccccc3c2)n2ccc(C(=O)c3ccccc3)cc12	167.4 µM
COc1cc(C2(C(F)(F)F)N=N2)ccc1C(=O)NCCOCCOCCNC(=O)c1cc(C(=O)c2ccc3ccccc3c2)n2ccc(C(=O)c3ccccc3)cc12	174.6 µM